Test: xn = mol fraction of the nth substance listed
Conditions: 101.3 kPa

CCCC[N+]1(C)CCCC1.O=C1O[B-]2(OC1=O)OC(=O)C(=O)O2 + CCCC[N+]1(C)CCCC1.O=S(=O)(F)[N-]S(=O)(=O)F
Conditions | mass density, x2 = 0 [kg/m3] | mass density, x2 = 0.2 [kg/m3] | mass density, x2 = 0.4 [kg/m3] | mass density, x2 = 0.6 [kg/m3] | mass density, x2 = 0.8 [kg/m3] | viscosity, x2 = 0 [mPa·s] | viscosity, x2 = 0.2 [mPa·s] | viscosity, x2 = 0.4 [mPa·s] | viscosity, x2 = 0.6 [mPa·s] | viscosity, x2 = 0.8 [mPa·s]
283.15 K | – | – | – | 1310 | 1321 | – | – | – | 1372 | 510
288.15 K | – | – | – | – | 1317 | – | – | – | – | 361
293.15 K | – | – | 1289 | 1301 | 1313 | – | – | 1242 | 580 | 261
298.15 K | – | 1271 | 1285 | 1297 | 1309 | – | 1362 | 790 | 399 | 194
303.15 K | 1255 | – | 1280 | 1293 | 1305 | 1732 | – | 530 | 283 | 147
308.15 K | – | 1263 | 1276 | 1289 | 1301 | – | 560 | 362 | 206 | 114
313.15 K | 1246 | 1259 | 1272 | – | 1297 | 670 | 375 | 257 | – | 90
318.15 K | – | 1254 | 1268 | 1281 | 1293 | – | 263 | 188 | 117 | 72
323.15 K | 1238 | 1250 | 1264 | 1277 | 1289 | 309 | 190 | 140 | 91 | 59
328.15 K | 1234 | 1246 | 1260 | 1273 | 1285 | 219 | 141 | 107 | 72 | 48.5
333.15 K | – | 1242 | 1256 | 1269 | 1282 | 160 | 107 | 84 | 58 | 40.5
338.15 K | – | 1238 | 1252 | 1265 | 1278 | 120 | 83 | 66 | 47.8 | 34.2
343.15 K | – | 1234 | 1248 | 1261 | 1274 | 92 | 66 | 54 | 39.7 | 29.2
348.15 K | – | 1230 | 1244 | 1257 | 1270 | 72 | 53 | 44 | 33.3 | 25.1
353.15 K | 1214 | – | 1240 | 1253 | 1266 | 58 | – | 36.6 | 28.3 | 21.9

CCC[N+]1(C)CCCCC1.O=S(=O)(F)[N-]S(=O)(=O)F + CCC[N+]1(C)CCCCC1.O=S(=O)([N-]S(=O)(=O)C(F)(F)F)C(F)(F)F
Conditions | mass density, x2 = 0 [kg/m3] | mass density, x2 = 0.2 [kg/m3] | mass density, x2 = 0.4 [kg/m3] | mass density, x2 = 0.6 [kg/m3] | mass density, x2 = 0.8 [kg/m3] | viscosity, x2 = 0.2 [mPa·s] | viscosity, x2 = 0.4 [mPa·s] | viscosity, x2 = 0.6 [mPa·s] | viscosity, x2 = 0.8 [mPa·s]
283.15 K | – | 1341 | 1363 | 1384 | 1403 | 108 | 140 | 168 | 242
288.15 K | – | 1337 | 1359 | – | 1399 | 87 | 109 | – | 178
293.15 K | – | 1333 | 1355 | – | 1395 | 70 | 86 | – | 134
298.15 K | – | 1330 | 1351 | 1371 | – | 58 | 70 | 80 | –
303.15 K | – | 1326 | 1347 | 1367 | 1386 | 48.1 | 57 | 65 | 82
308.15 K | – | – | – | 1363 | 1382 | – | – | 53 | 65
313.15 K | 1294 | 1318 | 1339 | – | 1378 | 34.5 | 39.7 | – | 53
318.15 K | – | 1314 | 1335 | 1355 | 1374 | 29.7 | 33.6 | 36.9 | 43.8
323.15 K | – | 1310 | 1331 | 1351 | 1370 | 25.7 | 28.8 | 31.3 | 36.6
328.15 K | – | 1306 | 1327 | 1347 | 1365 | 22.5 | 24.9 | 26.9 | 30.9
333.15 K | 1279 | 1302 | 1323 | 1342 | 1361 | 19.9 | 21.7 | 23.2 | 26.4
338.15 K | – | 1298 | 1319 | 1338 | 1357 | 17.6 | 19.1 | 20.3 | 22.8
343.15 K | – | – | 1315 | 1334 | 1353 | – | 16.9 | 17.8 | 19.9
348.15 K | 1268 | 1290 | 1311 | 1330 | 1348 | 14.1 | 15 | 15.8 | 17.4
353.15 K | – | 1286 | 1307 | 1326 | 1344 | 12.7 | 13.5 | 14.1 | 15.4

CCC[N+]1(C)CCCCC1.O=S(=O)([N-]S(=O)(=O)C(F)(F)F)C(F)(F)F + CCC[N+]1(C)CCCCC1.O=S(=O)(F)[N-]S(=O)(=O)F
x1 = 1
Conditions | mass density [kg/m3] | viscosity [mPa·s]
308.15 K | – | 87
313.15 K | – | 69
318.15 K | – | 55
328.15 K | – | 37.3
333.15 K | – | 31.4
338.15 K | 1374 | 26.6
343.15 K | – | 22.9
348.15 K | 1365 | 19.8

CCC[N+]1(C)CCCCC1.O=S(=O)(F)[N-]S(=O)(=O)F + CCCC[N+]1(C)CCCC1.O=S(=O)(F)[N-]S(=O)(=O)F
Conditions | mass density, x1 = 0.2 [kg/m3] | mass density, x1 = 0.4 [kg/m3] | mass density, x1 = 0.6 [kg/m3] | mass density, x1 = 0.8 [kg/m3] | mass density, x1 = 1 [kg/m3] | viscosity, x1 = 0.2 [mPa·s] | viscosity, x1 = 0.4 [mPa·s] | viscosity, x1 = 0.6 [mPa·s] | viscosity, x1 = 0.8 [mPa·s] | viscosity, x1 = 1 [mPa·s]
283.15 K | 1328 | 1324 | 1322 | 1320 | 1317 | 148 | 112 | 104 | 99 | 91
288.15 K | 1324 | 1320 | – | 1316 | 1314 | 117 | 89 | – | 80 | –
293.15 K | – | 1316 | – | 1312 | 1310 | – | 72 | – | 66 | 61
298.15 K | 1317 | 1312 | – | – | 1306 | 76 | 60 | – | – | 51
303.15 K | – | – | 1306 | 1304 | 1302 | – | – | 47.3 | 46.1 | 43.3
308.15 K | 1309 | 1305 | 1302 | 1301 | 1298 | 52 | 41.9 | 40 | 39.2 | 36.9
313.15 K | 1305 | 1301 | 1299 | 1297 | – | 43.9 | 35.8 | 34.3 | 33.6 | –
318.15 K | 1302 | 1297 | – | 1293 | 1290 | 37.4 | 30.8 | – | 29.1 | 27.6
323.15 K | 1298 | 1293 | 1291 | 1289 | 1287 | 32.2 | 26.7 | 25.8 | 25.4 | 24.2
328.15 K | 1294 | – | 1287 | 1285 | 1283 | 27.9 | – | 22.6 | 22.4 | 21.3
333.15 K | 1290 | 1286 | 1283 | – | – | 24.4 | 20.6 | 20 | – | –
338.15 K | 1286 | 1282 | 1280 | 1278 | 1275 | 21.5 | 18.3 | 17.7 | 17.6 | 16.9
343.15 K | – | 1278 | 1276 | 1274 | 1271 | – | 16.3 | 15.9 | 15.8 | 15.1
348.15 K | 1279 | 1274 | 1272 | 1270 | – | 17 | 14.6 | 14.3 | 14.2 | –
353.15 K | 1275 | 1270 | 1268 | 1266 | 1264 | 15.2 | 13.2 | 12.9 | 12.8 | 12.4

CCCC[n+]1ccccc1.O=S(=O)(F)[N-]S(=O)(=O)F + CCCC[n+]1ccccc1.F[B-](F)(F)F
Conditions | mass density, x1 = 0.2 [kg/m3] | mass density, x1 = 0.4 [kg/m3] | mass density, x1 = 0.6 [kg/m3] | mass density, x1 = 0.8 [kg/m3] | mass density, x1 = 1 [kg/m3] | viscosity, x1 = 0.2 [mPa·s] | viscosity, x1 = 0.4 [mPa·s] | viscosity, x1 = 0.6 [mPa·s] | viscosity, x1 = 0.8 [mPa·s] | viscosity, x1 = 1 [mPa·s]
283.15 K | – | – | 1325 | 1354 | 1382 | – | – | 128 | 94 | 76
288.15 K | 1257 | 1290 | 1321 | 1350 | 1378 | 198 | 135 | 98 | 74 | 60
293.15 K | – | 1286 | 1317 | 1346 | 1374 | – | 103 | 77 | 59 | 48.8
298.15 K | 1250 | 1282 | – | – | – | 111 | 80 | – | – | –
303.15 K | 1246 | 1279 | – | 1338 | – | 86 | 64 | – | 39.4 | –
308.15 K | – | 1275 | 1305 | 1334 | 1361 | – | 51 | 40.7 | 32.9 | 28.1
313.15 K | – | 1271 | 1302 | 1330 | 1357 | – | 42.1 | 33.9 | 27.8 | 24
318.15 K | – | – | 1298 | 1326 | 1353 | – | – | 28.6 | 23.7 | 20.7
323.15 K | 1232 | 1264 | 1294 | 1322 | 1349 | 36.4 | 29.4 | 24.4 | 20.5 | 18
328.15 K | 1228 | 1260 | 1290 | 1318 | 1344 | 30.5 | 25 | 21 | 17.8 | 15.8
333.15 K | 1225 | 1256 | 1286 | 1314 | 1340 | 25.8 | 21.5 | 18.2 | 15.6 | 13.9
338.15 K | – | 1253 | – | 1310 | 1336 | – | 18.6 | – | 13.8 | 12.4
343.15 K | – | 1249 | 1278 | – | 1332 | – | 16.3 | 14.1 | – | 11.1
348.15 K | – | 1245 | 1274 | 1302 | 1328 | – | 14.3 | 12.5 | 11 | 10
353.15 K | 1210 | 1242 | 1271 | 1298 | 1324 | 14.5 | 12.7 | 11.2 | 10 | 9.1

CCCC[N+]1(C)CCCC1.O=S(=O)(F)[N-]S(=O)(=O)F + CCC[N+]1(C)CCCCC1.O=S(=O)(F)[N-]S(=O)(=O)F
x2 = 0
Conditions | mass density [kg/m3]
293.15 K | 1323
308.15 K | 1312
323.15 K | 1300

CCCC[N+]1(C)CCCC1.O=S(=O)(F)[N-]S(=O)(=O)F + CCCC[N+]1(C)CCCC1.O=C1O[B-]2(OC1=O)OC(=O)C(=O)O2
x1 = 1
Conditions | mass density [kg/m3] | viscosity [mPa·s]
283.15 K | 1331 | 174
288.15 K | 1327 | –
298.15 K | 1319 | –
303.15 K | 1316 | 70
313.15 K | 1308 | 48.6
318.15 K | 1304 | 41.2
333.15 K | 1293 | 26.4
338.15 K | 1289 | 23.1
343.15 K | 1286 | –
348.15 K | 1282 | 18.1
353.15 K | 1278 | 16.2

CCCC[n+]1ccccc1.F[B-](F)(F)F + CCCC[n+]1ccccc1.O=S(=O)(F)[N-]S(=O)(=O)F
x2 = 0
Conditions | mass density [kg/m3] | viscosity [mPa·s]
283.15 K | 1223 | 460
288.15 K | – | 315
313.15 K | – | 72
318.15 K | – | 57
328.15 K | – | 38
333.15 K | – | 31.5
343.15 K | – | 22.6
348.15 K | 1179 | 19.4
353.15 K | – | 16.8

— a compilation of properties of binary mixtures (doi:10.1021/acs.jced.8b00334)
